# Measurements from PubChem BioAssay AID1448 (The Scripps Research Institute Molecular Screening Center, 2008).
# Protein sequences, listed by entry. Tags and fused reporters are not part of them.
# UniProt Q8TDD5, whole entry: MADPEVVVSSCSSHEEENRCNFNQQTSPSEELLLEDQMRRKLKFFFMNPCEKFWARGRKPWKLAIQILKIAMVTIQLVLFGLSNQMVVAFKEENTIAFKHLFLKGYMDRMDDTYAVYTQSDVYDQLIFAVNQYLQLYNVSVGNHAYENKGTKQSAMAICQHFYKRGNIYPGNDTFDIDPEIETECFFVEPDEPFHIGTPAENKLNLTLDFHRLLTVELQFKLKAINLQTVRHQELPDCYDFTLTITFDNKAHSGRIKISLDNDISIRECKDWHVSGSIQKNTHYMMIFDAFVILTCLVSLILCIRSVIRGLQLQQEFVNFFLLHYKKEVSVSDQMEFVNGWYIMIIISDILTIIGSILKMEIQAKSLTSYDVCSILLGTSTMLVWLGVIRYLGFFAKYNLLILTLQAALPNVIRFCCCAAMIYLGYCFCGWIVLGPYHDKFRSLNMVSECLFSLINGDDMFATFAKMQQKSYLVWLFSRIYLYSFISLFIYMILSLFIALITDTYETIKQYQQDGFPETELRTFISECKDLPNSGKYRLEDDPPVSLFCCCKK
# The list shows a part of the results, in another mix than the full data. Calls of active or inactive are those of the source.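 Rule for the calls: active = activation above its plate's cutoff, the mean activation of the plate's test wells plus 3 SD (cut at about 12% in these data); inactive = the rest.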
# Target: Mucolipin-3 (Homo sapiens) (UniProt Q8TDD5)
# Assay: human TRPML3 channel agonists, primary screen, cell-based, HEK293 TRPML3-YFP, Fluo-8 calcium fluorescence, 3 µM (AID 1448);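 note: 0% = DMSO only wells and 100% = carbachol wells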
# Conditions: at 3 µM, hits give high values, 100% = the carbachol control signal
# Outline: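 Test system: HEK293 cells stably carrying human TRPML3-YFP; Doses: single dose, 3 µM final nominal compound, 0.3% DMSO final; Schedule: dye loading 1 h 37 °C then 30 min ambient, 125 s read; Technique: Fluo-8 calcium fluorescence; Benchmarks: high control carbachol 87 µM, low control DMSO.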
row,SMILES,activation
1,O=C(NCC1(N2CCCCC2)CCCCC1)c1cccc([N+](=O)[O-])c1,inactive: 0.67%
2,N#CC1(Nc2ccccc2)CCN(CCc2ccccc2)CC1,inactive: 0.07%
3,CN1CCN(CCOC(=O)C(O)(c2ccccc2)c2ccccc2)CC1,inactive: 0.88%
4,COc1ccc(NC2CCN(C(=O)OC(C)(C)C)CC2)cc1,inactive: 0.06%
5,O=C(NCC1(N2CCOCC2)CCCCC1)c1cc(=O)[nH]c2ccccc12,inactive: 0.15%
6,CN(C)c1cccc(C(=O)NCC2(N3CCCCC3)CCCCC2)c1,inactive: 0.98%
7,COc1ccc(CN(CCCl)CCCl)cc1Cl,inactive: 0.31%
8,CC(C)c1ccc(NC2CCN(C(=O)OC(C)(C)C)CC2)cc1,inactive: 2.76%
9,CN1CCC(Nc2cccc(F)c2)CC1,inactive: -0.13%
10,COc1ccc(C(=O)NCC2(N3CCCCC3)CCCCC2)c(OC)c1OC,inactive: 0.68%
11,CCOC(=O)N1CCC(Nc2ccc(OC)cc2)CC1,inactive: 0.11%
12,N#CC1(Nc2ccccc2)CCN(Cc2ccccc2)CC1,inactive: 1.12%
13,O=C(OC1CN2CCC1CC2)C1c2ccccc2Oc2ccccc21 (centres undefined),inactive: 0.43%
14,O=C(NCC1(N2CCOCC2)CCCCC1)c1cc2ccccc2o1,inactive: 0.34%
15,COc1ccc(NC2CCN(CCc3ccccc3)CC2)c(OC)c1,inactive: 0.17%
16,CCOc1ccc(C)cc1CN(CCCl)CCCl,inactive: 0.11%
17,Cc1ccc(OCC(C)C)c(CN(CCCl)CCCl)c1,inactive: -0.06%
18,CN(C)c1ccc(C(=O)NCC2(N3CCCCC3)CCCCC2)cc1,inactive: 1.53%
19,CCN1CCC(Nc2cccc(F)c2)CC1,inactive: 0.55%
20,CC(C)(C)OC(=O)N1CCC(Nc2ccccc2)CC1,inactive: 1.17%
21,CCOc1ncccc1C(=O)NCC1(N2CCOCC2)CCCCC1,inactive: -0.5%
22,CCCOc1ccc(C)cc1CN(CCCl)CCCl,inactive: 0%
23,CCC(CO)(C(=O)OC1CN2CCC1CC2)c1ccccc1 (centres undefined),inactive: 0.89%
24,COc1cc(OC)cc(C(=O)NCC2(N3CCOCC3)CCCCC2)c1,inactive: 0.03%
25,COc1ccc(C(=O)NCC2(N3CCOCC3)CCCCC2)cc1OC,inactive: -0.27%
26,O=C(OC1CN2CCC1CC2)C1c2ccccc2C=Cc2ccccc21 (centres undefined),inactive: 0.92%
27,N/C(=N\O)c1c(N)no[n+]1[O-],inactive: 0.58%
28,N#Cc1ccc(C(=O)NCC2(N3CCCCC3)CCCCC2)cc1,inactive: 0.55%
29,c1ccc(CN2CCC(Nc3ccccc3)CC2)cc1,inactive: 1.04%
